Compound potency records, mixed from different reports. Data source: NIAID ChemDB in PubChem.

Common to all: whole-cell or culture tests

Fold resistance has wild type as its base. Percent inhibition refers to the dose given; in toxicity tests it is the harm to the cells. A number after MIC or MFC names an inhibition level or a share of isolates. ECn: concentration that inhibits the pathogen or its effect by n%. Blank or dashed fields: not listed here. Lines come from different laboratories, so protocols vary.

structure | species | strain or isolate | changes | cell line | method | endpoint | dose | value
CC1COc2c(N3CCN(C)CC3)c(F)cc3c(=O)c(C(=O)O)cn1c23 | Streptococcus pneumoniae | 30 strains |  |  |  | MIC50 |  | 2 µg/mL
C#CC[C@@H](C(=O)N[C@H](/C=C/C(=O)OCC)C[C@@H]1CCNC1=O)n1cccc(NC(=O)c2cc(C)on2)c1=O | Rhinovirus | Serotype 9 |  | H1-HELA | cytopathic effect / XTT | EC50 |  | 0.079 µM
CNC1CCc2cc(OC)c(OC)c(OC)c2-c2ccc(OC)c(=O)cc21 | Encephalitozoon intestinalis |  |  | RK-13 |  | inhibition | 0.01 µg/mL | 34.4%
C[C@H](Cc1ccc(O)c(O)c1)[C@@H](C)Cc1ccc(O)c(O)c1 | Candida tropicalis | CCC 131-1997 |  |  | broth dilution | MIC50 |  | 125 µg/mL
NC1C=CC(CC[C@H](N)C(=O)O)C=C1 | Herpes simplex virus 1 | KOS |  | HeLa | cytopathic effect | EC50 |  | >200 µg/mL
COc1cc(Cc2cnc(N)nc2N)cc(OC)c1Br | Mycobacterium ulcerans | Isolate 94-886 |  |  |  | MBC |  | 32 µg/mL
CCOC(=O)Nc1cc2[nH]c(-c3ccccc3)nc2c(N)n1 | Encephalitozoon intestinalis |  |  | RK-13 |  | inhibition | 0.01 µg/mL | 3.2%
CC(C)=CCN1c2cc(Cl)cc3[nH]c(=S)n(c23)C[C@@H]1C | HIV-1 |  | RT-D67N K70R T215Y K219Q A98G | MT-4 |  | EC95 |  | 0.2 µM
CO[C@H]1/C=C/O[C@@]2(C)Oc3c(C)c(O)c4c(O)c(c(/C=N/N5CCN(C)CC5)c(O)c4c3C2=O)NC(=O)/C(C)=C\C=C\[C@H](C)[C@H](O)[C@@H](C)[C@@H](O)[C@@H](C)[C@H](OC(C)=O)[C@@H]1C | Staphylococcus aureus | 20 strains (methicillin-resistant) |  |  |  | MIC90 |  | 0.0078 µg/mL
CCOc1ccc(OCC)c(NCc2cnc3nc(N)nc(N)c3c2C)c1 | Encephalitozoon intestinalis |  |  | RK-13 |  | inhibition | 1 µg/mL | 68.3%
CN[C@@H]1[C@H](O[C@H]2[C@H](O[C@H]3[C@H](O)[C@@H](O)[C@H](N=C(N)N)[C@@H](O)[C@@H]3N=C(N)N)O[C@@H](C)[C@]2(O)C=O)O[C@@H](CO)[C@H](O)[C@H]1O | Pseudomonas aeruginosa |  |  |  |  | MIC |  | 25 µg/mL
C[C@H]1COc2c(N3CCN(C)CC3)c(F)cc3c(=O)c(C(=O)O)cn1c23 | Streptococcus pneumoniae | Clinical isolate RT1 |  |  |  | MIC |  | >8 µg/mL
CN(C)[C@@H]1C(=O)C(C(N)=O)=C(O)[C@@]2(O)C(=O)C3=C(O)c4c(O)c(NC(=O)CN5CCOCC5)cc(F)c4C[C@H]3C[C@@H]12 | Enterococcus faecalis | 103-29212 |  |  | agar diffusion | MIC |  | 8 µg/mL
Nc1ncnc2c1ncn2[C@H]1C=C[C@H](O)[C@@H]1O | Measles virus |  |  | CV-1 | neutral red | EC50 |  | <0.1 µg/mL
CC1=C(/C=C/C(C)=C/C=C/C(C)=C/CO)C(C)(C)CCC1 | Herpes simplex virus 1 | KOS |  | HeLa | cytopathic effect | EC50 |  | >200 µg/mL
C[C@@H](c1nc(-c2ccc(C#N)cc2)cs1)[C@](O)(Cn1cnnc1)c1ccc(F)cc1F | Candida albicans | Isogenic isolate 14 Erg11 (4-5X) R467K |  |  |  | MIC |  | 0.03 µg/mL
CCOc1cc(Cc2cnc(N)nc2N)cc(OCC)c1-n1cccc1 | Mycobacterium ulcerans | Isolate 94-539 |  |  |  | MBC |  | 1 µg/mL
CC1(C)[C@@H](O[C@H]2O[C@H](C(=O)O)[C@@H](O)[C@H](O)[C@H]2O[C@@H]2O[C@H](C(=O)O)[C@@H](O)[C@H](O)[C@H]2O)CC[C@]2(C)[C@H]3C(=O)C=C4[C@@H]5C[C@@](C)(C(=O)O)CC[C@]5(C)CC[C@@]4(C)[C@]3(C)CC[C@@H]12 | West Nile virus | E101 |  | VERO | cytopathic effect | EC50 |  | 228.9 µg/mL
Nc1ncnc2c1ncn2C[C@H](CO)OCP(=O)(O)O | Adenovirus | TAK (TYPE 41) |  |  | virus yield | EC90 |  | 0.4 µg/mL
CCOC(=O)Nc1cc2[nH]c(=O)c(-c3ccccc3)nc2c(N)n1 | Encephalitozoon intestinalis |  |  | RK-13 |  | inhibition | 1 µg/mL | 61.4%
CCO/N=C/c1ccc(OCCC2CCN(c3ccc(C)nn3)CC2)cc1 | Rhinovirus | 5426-CV26 (ICAM-1 receptor group 25) |  | KB | neutral red | EC50 |  | >4.588 µM
O=C1c2cccc(O)c2C(=O)c2c(O)cccc21 | Herpes simplex virus 1 | KOS |  | HeLa | cytopathic effect | EC50 |  | >200 µg/mL
Nc1nc2c(ncn2COCOCP(=O)(O)O)c(=O)[nH]1 | Parainfluenza virus | SF (TYPE 5) |  |  | cytopathic effect | EC50 |  | 100 µg/mL
CC[C@H]1OC(=O)[C@H](C)[C@@H](O[C@H]2C[C@@](C)(OC)[C@@H](O)[C@H](C)O2)[C@H](C)[C@@H](O[C@@H]2O[C@H](C)C[C@H](N(C)C)[C@H]2O)[C@](C)(OC)C[C@@H](C)C(=O)[C@H](C)[C@@H](O)[C@]1(C)O | Staphylococcus aureus | 16 strains (methicillin- quinolone-resistant) |  |  |  | MIC50 |  | >32 µg/mL
O=C(NC(=O)c1c(F)cccc1F)Nc1cc(Cl)c(OC(F)(F)C(F)C(F)(F)F)cc1Cl | Vittaforma corneae |  |  | RK-13 |  | inhibition | 2.5 µg/mL | 30.3%
Cc1cc2c(C(C)C)c(O)c(O)c(C=O)c2c(O)c1-c1c(C)cc2c(C(C)C)c(O)c(O)c(C=O)c2c1O | Herpes simplex virus 1 | KOS |  | HeLa | cytopathic effect | EC50 |  | >100 µM
Nc1ccn([C@@H]2C[C@H](CO)[C@@H](O)[C@H]2O)c(=O)n1 | Vesicular stomatitis virus |  |  | CV-1 | cytopathic effect | EC50 |  | 2 µg/mL
CC[C@]1(O)C[C@H]2CN(CCc3c([nH]c4ccccc34)[C@@](C(=O)OC)(c3cc4c(cc3OC)N(C)[C@H]3[C@@](O)(C(=O)OC)[C@H](OC(C)=O)[C@]5(CC)C=CCN6CC[C@]43[C@@H]65)C2)C1 | Encephalitozoon intestinalis |  |  | RK-13 |  | inhibition | 0.1 µg/mL | 66.8%
CC(C)(CO)C(=O)SCCOP(=O)(NCc1ccccc1)OC[C@H]1O[C@@H](n2cnc3c(=O)[nH]c(N)nc32)[C@](C)(O)[C@@H]1O | Hepatitis C virus | GT1b | Y93H | Replicon cells | replicon | fold resistance |  | 0.75
NC12CC3CC(CC(C3)C1)C2 | Influenza A virus | Influenza A/Ibaraki/1/90 (H3N2) |  | MDCK | plaque count | EC50 |  | 0.47 µg/mL
CC[C@H]1OC(=O)[C@H](C)[C@@H](O[C@H]2C[C@@](C)(OC)[C@@H](O)[C@H](C)O2)[C@H](C)[C@@H](O[C@@H]2O[C@H](C)C[C@H](N(C)C)[C@H]2O)[C@](C)(OC)C[C@@H](C)C(=O)[C@H](C)[C@@H](O)[C@]1(C)O | Mycobacterium abscessus | T45 |  |  | broth dilution | MIC |  | 4 µg/mL
CC/C=C\C/C=C\C/C=C\CCCCCCCCO | Herpes simplex virus 1 | KOS |  | HeLa | cytopathic effect | EC50 |  | >200 µg/mL
Nc1nc2c(ncn2CCOCP(=O)(O)O)c(=O)[nH]1 | Measles virus | Halonen |  |  | cytopathic effect | EC50 |  | 0.07 µg/mL
NC(=O)c1ncn([C@@H]2O[C@H](CO)[C@@H](O)[C@H]2O)n1 | Measles virus | BIL |  | CV-1 | neutral red | EC50 |  | 100 µg/mL
CN(C)c1cc(NC(=O)CNC(C)(C)C)c(O)c2c1C[C@H]1C[C@H]3[C@H](N(C)C)C(=O)C(C(N)=O)=C(O)[C@@]3(O)C(=O)C1=C2O | Mycobacterium massiliense | X71 |  |  | broth dilution | MIC |  | 4 µg/mL
OC(Cn1cncn1)(Cn1cncn1)c1ccc(F)cc1F | Candida albicans | YL 342 |  |  | broth dilution | MIC |  | 512 µg/mL
CCOC(=O)Nc1cc2c(c(N)n1)N=C(c1ccc(OC)cc1)CO2 | Encephalitozoon intestinalis |  |  | RK-13 |  | inhibition | 1 µg/mL | 84.8%

Repeating the final 3 entries:

CN(C)c1cc(NC(=O)CNC(C)(C)C)c(O)c2c1C[C@H]1C[C@H]3[C@H](N(C)C)C(=O)C(C(N)=O)=C(O)[C@@]3(O)C(=O)C1=C2O ; species: Mycobacterium massiliense ; strain or isolate: X71 ; method: broth dilution ; endpoint: MIC ; value: 4 µg/mL
OC(Cn1cncn1)(Cn1cncn1)c1ccc(F)cc1F ; species: Candida albicans ; strain or isolate: YL 342 ; method: broth dilution ; endpoint: MIC ; value: 512 µg/mL
CCOC(=O)Nc1cc2c(c(N)n1)N=C(c1ccc(OC)cc1)CO2 ; species: Encephalitozoon intestinalis ; cell line: RK-13 ; endpoint: inhibition ; dose: 1 µg/mL ; value: 84.8%